Measured values as given in publication PMC4081096, “GtrS and GltR form a two-component system: the central role of 2-ketogluconate in the expression of exotoxin A and glucose catabolic enzymes in Pseudomonas aeruginosa” (Nucleic Acids Research, 2014).
For part of these data: Tags and fusion partners may be left off the protein sequences shown. For part of these data: For at least one entry, the source does not settle the construct or the ends of the probe.

Columns and labels:
[1] = target: T1, GltR (Pseudomonas aeruginosa PAO1) (UniProt G3XCY6); assay: EMSA; conditions: EMSA: 2 nM 32P-DNA, 50 mM Tris-HCl pH 7.5, 10 mM NaCl, 0.1 mM EDTA, 1 mM DTT, 5% glycerol, 20 ug/ml poly(dI-dC), 200 ug/ml BSA, 1 h, recombinant protein, residues 1-242, protein details: C-terminal His6 (pET28a), label: 32P 5' end, probe letters rebuilt from the primers and the genome
T1 sequence (looked up): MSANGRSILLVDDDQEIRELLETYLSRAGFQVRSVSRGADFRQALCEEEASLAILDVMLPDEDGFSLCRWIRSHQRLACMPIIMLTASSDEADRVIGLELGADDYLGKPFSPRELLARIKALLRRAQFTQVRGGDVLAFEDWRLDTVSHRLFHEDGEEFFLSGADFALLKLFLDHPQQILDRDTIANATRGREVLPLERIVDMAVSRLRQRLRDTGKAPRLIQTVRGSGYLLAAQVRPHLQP

[2] = target: GltR D56A (Pseudomonas aeruginosa PAO1) (UniProt G3XCY6); assay: EMSA; conditions: GtrS-Cter + 0.2 mM ATP (no dissociation); EMSA: 2 nM 32P-DNA, 50 mM Tris-HCl pH 7.5, 10 mM NaCl, 0.1 mM EDTA, 1 mM DTT, 5% glycerol, 20 ug/ml poly(dI-dC), 200 ug/ml BSA, 1 h; recombinant protein; residues 1-242; protein details: His6 (pET28a); label: 32P 5' end; probe letters rebuilt from the primers and the genome
[3] = target: T1, GltR (Pseudomonas aeruginosa PAO1); assay: DNase I footprinting; conditions: 2, 4, 10 uM GltR, one operator site; recombinant protein; residues 1-242; protein details: C-terminal His6 (pET28a); label: 32P 5' end; probe letters rebuilt from the primers and the genome
PtxR = target: T2, PtxR (UniProt P72131); assay: EMSA; conditions: with constant GltR, binding exclusive, no ternary complex; EMSA: 2 nM 32P-DNA, 50 mM Tris-HCl pH 7.5, 10 mM NaCl, 0.1 mM EDTA, 1 mM DTT, 5% glycerol, 20 ug/ml poly(dI-dC), 200 ug/ml BSA, 1 h; recombinant protein; label: 32P 5' end; probe letters rebuilt from the primers and the genome
T2 sequence (looked up, limits assumed): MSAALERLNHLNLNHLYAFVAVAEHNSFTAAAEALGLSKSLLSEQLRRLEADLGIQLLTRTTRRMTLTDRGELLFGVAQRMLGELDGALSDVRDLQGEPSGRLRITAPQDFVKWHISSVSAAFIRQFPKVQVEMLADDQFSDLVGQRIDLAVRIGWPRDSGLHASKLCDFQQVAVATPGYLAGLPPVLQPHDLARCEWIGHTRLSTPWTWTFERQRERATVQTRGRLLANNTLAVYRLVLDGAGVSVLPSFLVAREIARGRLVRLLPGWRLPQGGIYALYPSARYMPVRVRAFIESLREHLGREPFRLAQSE

## AGATCTCGGGTCAGCCTGCGCTTGCCACGCCTGGGGCTGGAGTGATGGGCTGGCCTGTCGGGCCCTTGAACGAGGCGGGCAGGCACGAGGTTCTCCCGTGTTCTGCGGCAGCCGCAGACAGAGGCGGAGCGGGCGCTATGGCAGTGTTTGCGCGGGCATCGATTGCTCGGGCTGAAGTTTCGTCGGCAGAAGGTTCTCGGGCCGTACATCGTCGATTTCGTCTGTCATGAGCGGATGCTGGTGATCGAACTGGATGGTGGGCAGCATGTGGGTTCGCCGGCCGATGCCTGGCTGGAGAGCCGGGGTCCAGGGTACTGCGTTTCTGGAACGACAAGGTGCTGCCGCGCAGGGAGGTGCTGCTGGAGGTCATTCTCGTGTTGTAGGAGGTTTCTGTCGCGAAACCGCCTTGCCGAGTTCAAGTCCAGATTTTCCTGCTCTGCCTCAATCCCAATGTAACCGCTCCGTGACAAACCCGGATCGCTTCGTTACCCGCGACGCGGAACGCTTGAATAGACTCGGAGCATTGCAAGCGCAGACTTGCTCCGAATAACAAGAAGAAGGTTTTCCTCATGAATGCGATCCGTCGCCTCTCTGCCGTCATCTGTCTCTGCAG (double strand) [PoprB promoter fragment]
[1]
  half-maximal binding: 1000 nM
[1]; GtrS-Cter (269-465), no ATP
  binding result: binds
[2]
  binding result: binds
[3]
  binding result: binds

## CTGCAGACTCACCCTTGAGGCCCGGCGCTCCACCGGCGAATGCGGCTGTACCTCGGCGCTGGTGCGATATCGGCTGCTGGCCAGGGGCGCCAGCGCCGACAGCCTCGTGCTTCAAGAGGGGCTGCTCGATAGTCGCCAGGACACGCCGCGCACGCTGACCCTGGCGGCGGACGCCGGCTTGGCGAGCGGCCGCGAACTGGTCGTCACCCTGGGTTGTCAGGCGCCTGACTGACAGGCCGGGCTGCCACCACCAGGCCGAGATGGACGCCCTGCATGTATCCTCCGATCGGCAAGCCTCCCGTTCGCACATTCACCACTCTGCAATCCAGTTCATAAATCCCATAAAAGCTCTCTTCCGCTCCCCGCCAGCCTCCCCGCAACCCGCACCCTAGACGCCCCGCCGCTCTCCGCCGGCTCGCCCGACAAGAAAAACCAACCGCTCGATCAGCCTCATCCTTCACCCATCAAAGGAGCCATCGCGATGCACCTGACACCCCATTGAGATCT (double strand) [PtoxA promoter fragment]
[1]
  half-maximal binding: 1000 nM
PtxR
  binding result: binds
